# Results taken from the supplement of paper PMC12350171.
# Shown are results outside the selection of hits, which stands elsewhere.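 The calls were made as follows: active = AUC significantly below DMSO controls by Student t-fit with adjusted P under 0.01; inactive = not significantly reduced.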
# Experiments:
# Vibrio cholerae = assay: growth AUC normalised to DMSO control (fraction of control); higher = less growth inhibition, active = hit call of the paper; conditions: 20 µM
# [1] = tested on: Yersinia pseudotuberculosis; assay: as above; conditions: 20 µM
smiles,measurement,setting,value
COc1cc(Br)c(C[N+]2(CCOCCC3CCC4CC3C4(C)C)CCOCC2)cc1OC (configuration not stated) [Pinaverium bromide],growth AUC normalised to DMSO control,Vibrio cholerae,inactive: 1.01
same,growth AUC normalised to DMSO control,[1],inactive: 1.01
